# Where “and” joins values, the source holds several entries; their conditions need not be identical. Equal entries are not always repeated.
# Assay: general procedure: Fmoc solid-phase peptide synthesis; Fmoc-L-Pro resin (G7a); hydroxymethylphenoxymethyl (HMP) resin preloaded with Lys(Boc), 0.70 mmol/g (G20a)
# Details: oxidative folding step, several disulfide bridges, sequence written open
substance,measurement,setting,value
MEFQ140TQPSKPTTKQRQNKPPNKPNNDFHFEVFNFVPC173SIC176SNNPT C182WAIC186KRIP190S144KPTTKQRQNKPPNK158,final HPLC purity,RP-HPLC,>90%
same,oxidative folding yield,run 1,22% and 44%
